The results in this text go back to US20070249501A1 (priority 2004, published 2007).

Experiment [1] concerns root-knot nematode Meloidogyne javanica. The conditions noted are these: scale 0 (clean roots) to 4 (100% coverage of galls); three weeks after planting.
In experiment [2] the test system is Fusarium oxysporum f. sp. radicis-lycopersici (FORL). The following applies: applied to soil at 30 ppm; 7 days at 25° C.
For a further experiment, the system named is Verticillium dahliae. Briefly: Viability of soil-borne fungi in treated soil: Verticillium dahliae. The conditions noted are these: 7 days.

Each structure is given as a SMILES string.

Regarding `O=[N+]([O-])C(Br)(Br)Br`, the “galling index of tomato plant roots” value in experiment [1] is recorded as “zero”. Also, the “density of FORL in soil” value in experiment [2] is less than 10 cfu/g. Further, the “Verticillium dahliae density relative to the untreated check” value in the experiment on Verticillium dahliae (applied to soil at 30 ppm) is recorded as “under 1 % of the untreated check”. Also, the “LD50 (concentration reducing density in soil by half), Verticillium dahliae” value in the experiment with Verticillium dahliae (dose response curve, FIG. 4) is “about 12 ppm”.
